Pooled drug test results. Numbers come from NIAID ChemDB, via PubChem.

All rows: whole-cell or culture tests; species: Candida albicans; read-out: MIC

Lines come from different laboratories, so protocols vary.

SMILES	strain or isolate	method	conditions	value
CCCCC/C=C\C/C=C\CCCCCCCC(=O)O	-	-	-	455 µg/mL
Cc1c(-c2ccccc2)c(=O)oc2ccc(-c3cc(-c4ccc(F)cc4)c4oc5ccccc5c4n3)cc12	MTCC 227	broth dilution / turbidity	-	1000 µg/mL
CCCC[C@H]1C(=O)O[C@H](C)[C@H](NC(=O)c2cccc(NC=O)c2O)C(=O)O[C@@H](C)[C@@H]1OC(=O)CC(C)C	IFO1061	-	-	0.1 µg/mL
COc1ccc(-c2cc(-c3ccc4oc(=O)c(-c5ccccc5)c(C)c4c3)nc3c2CCc2ccccc2-3)cc1	MTCC 227	broth dilution / turbidity	-	250 µg/mL
C/C=C(/C)C(=O)O[C@@H]1c2cc(C(C)=O)ccc2O[C@@H]1C(C)(C)O	ATCC 10231	-	-	>400 µg/mL
Cn1c(=O)cc(Oc2nc(Nc3ccc(C#N)cc3)nc(Nc3ccccn3)n2)c2ccccc21	MTCC 183	agar	-	>500 µg/mL
COc1ccnc(C(=O)NCCCCCCCC2COC(=O)C(Cc3ccccc3)C(OC(=O)C(C)C)C(C)OC2=O)c1O	IFO1061	-	-	25 µg/mL
O=C(CCc1ccc(O)c(O)c1)OCc1ccc([N+](=O)[O-])o1	ATCC 10231	broth dilution	4 h, biofilm	256 µg/mL
C[C@@H]1O[C@@H](O[C@H]2[C@H](O[C@H]3CC[C@@]4(C)[C@@H](CC[C@]5(C)[C@@H]4CC=C4[C@@H]6CC(C)(C)CC[C@]6(C(=O)O)CC[C@]45C)[C@]3(C)CO)OC[C@H](O)[C@@H]2O)[C@H](O)[C@H](O)[C@H]1O	-	-	-	25 µg/mL
CC/C=C/C(CC)C/C=C/[C@@]1(CC)C[C@H](C)[C@@H](CC(=O)O)OO1	-	-	-	5 µg/mL
C[C@@H]1[C@H](O)[C@@H](C)/C=C/C=C/CC/C=C/C=C/C=C/C=C/C(O[C@H]2O[C@H](C)[C@@H](O)[C@H](N)[C@@H]2O)CC2O[C@](O)(CC(O)C(O)CCC(O)CC(O)CC(O)CC(=O)O[C@H]1C)CC(O)C2C(=O)O	CBS 562	broth dilution	-	7.8 µg/mL
COc1ccccc1N1CCN(CCCN2C(=O)CCC(c3ccccc3)C2=O)CC1	DSM 1386	-	-	>100 µM
CCCCCCCCCCOCCC(=O)O	-	-	-	500 µM
Cn1c(=O)cc(Oc2nc(Nc3ccc(C#N)cc3)nc(Nc3nc4ccc(F)cc4s3)n2)c2ccccc21	MTCC 183	agar	-	25 µg/mL
COc1ccc(Cc2c3cc(OC)c(OC)cc3cc[n+]2C)cc1OC	IFO1061	-	-	>500 µg/mL
COc1ccc(-c2cc(-c3ccc4oc(=O)c(-c5ccccc5)c(C)c4c3)nc3c2Cc2ccccc2-3)cc1OC	MTCC 227	broth dilution / turbidity	-	250 µg/mL
COc1cc(Cc2cnc(N)nc2N)cc(OC)c1OCCCNc1ccc(S(=O)(=O)c2ccc(N)cc2)cc1	YEM 12 (WT)	-	-	>64 µg/mL
OC(Cn1cncn1)(Cn1cncn1)c1ccc(F)cc1F	ATCC 64549	-	-	>200 µg/mL
CCCCCCCCCCC(=O)Oc1c(OC)ccc2cc3[n+](cc12)CCc1cc2c(cc1-3)OCO2	ATCC 10231	-	-	500 µg/mL
Cc1c(-c2ccccc2)c(=O)oc2ccc(-c3cc(-c4ccccc4)c4c(n3)-c3ccccc3CC4)cc12	MTCC 227	broth dilution / turbidity	-	>1000 µg/mL
CCCCCC	ATCC 10231	-	-	8000 µg/mL
O=C1CCC(c2ccccc2)C(=O)N1CCCN1CCN(c2ccccc2O)CC1	DSM 1386	-	-	>100 µM
COc1ccc(Cc2cc3cc(OC)c(OC)cc3c[n+]2C)cc1OC	IFO1061	-	-	>500 µg/mL
Clc1ccccc1C(c1ccccc1)(c1ccccc1)n1ccnc1	IEM 49/64	-	-	0.5 µg/mL
CCC(C)n1ncn(-c2ccc(N3CCN(c4ccc(OC[C@H]5CO[C@](Cn6cncn6)(c6ccc(Cl)cc6Cl)O5)cc4)CC3)cc2)c1=O	Darlington	-	-	>16 µg/mL
C[C@@H]1[C@H](O)[C@@H](C)/C=C/C=C/CC/C=C/C=C/C=C/C=C/C(O[C@H]2O[C@H](C)[C@@H](O)[C@H](N)[C@@H]2O)CC2O[C@](O)(CC(O)C(O)CCC(O)CC(O)CC(O)CC(=O)O[C@H]1C)CC(O)C2C(=O)O	MTCC 227	broth dilution / turbidity	-	500 µg/mL
CCCCCCCCCCCC(=O)OCC(O)CO	-	-	-	90 µg/mL
CC(=O)N1CCN(c2ccc(OC[C@H]3CO[C@](Cn4ccnc4)(c4ccc(Cl)cc4Cl)O3)cc2)CC1	ATCC 60027	broth dilution	-	20 µg/mL
CO[C@]1(CC[C@H](C)CO[C@@H]2O[C@H](CO)[C@@H](O)[C@H](O)[C@H]2O)O[C@H]2C[C@H]3[C@@H]4CC=C5C[C@@H](C6O[C@H](CO)[C@@H](O[C@@H]7O[C@@H](C)[C@H](OC8O[C@@H](C)[C@H](O)[C@@H](O)[C@H]8O)[C@@H](O)[C@H]7O)[C@H](O)[C@H]6O[C@@H]6O[C@@H](C)[C@H](O)[C@@H](O)[C@H]6O)CC[C@]5(C)[C@H]4CC[C@]3(C)[C@H]2[C@@H]1C	-	-	-	>200 µg/mL
CCCCCCCCCOCCCC(=O)O	-	-	-	500 µM
C/C=C(/C)C(=O)O[C@@H]1c2cc(C(C)=O)c(OC)cc2O[C@@H]1C(C)(C)O	ATCC 10231	-	-	>400 µg/mL
O=c1cc(-c2ccccc2)oc2cc(O)c(O)c(O)c12	ATCC 64548	-	-	13 µg/mL
Cc1c2cc(O)c(O)cc2cc[n+]1C	IFO1061	-	-	>500 µg/mL
Cn1c(=O)cc(Oc2nc(Nc3ccc(C#N)cc3)nc(Nc3nc4ccc(Cl)cc4s3)n2)c2ccccc21	MTCC 183	agar	-	50 µg/mL
CCCCC(=O)Oc1c(OC)ccc2cc3[n+](cc12)CCc1cc2c(cc1-3)OCO2	ATCC 10231	-	-	>500 µg/mL
CC(C)C(=O)OC1C(C)OC(=O)C(CCCCCCCNC(=O)c2ccc[nH]c2=O)COC(=O)C1Cc1ccccc1	IFO1061	-	-	50 µg/mL
COc1cc(/C=C/NC(=O)C2CCCN2C)c(Br)cc1Br	-	-	-	142.8 µg/mL
COc1ccnc(C(=O)NCC=C(C)C=C(C)C=C(C)C2COC(=O)C(Cc3ccccc3)C(OC(=O)C(C)C)C(C)OC2=O)c1O	IFO1061	-	-	100 µg/mL
CCC(C)n1ncn(-c2ccc(N3CCN(c4ccc(OC[C@H]5CO[C@](Cn6cncn6)(c6ccc(Cl)cc6Cl)O5)cc4)CC3)cc2)c1=O	IEM 49/64	-	-	10 µg/mL
Cn1c(=O)cc(Oc2nc(Nc3ccc(C#N)cc3)nc(Nc3nc4ccc(Br)cc4s3)n2)c2ccccc21	MTCC 183	agar	-	25 µg/mL
CCCC[C@H]1C(=O)O[C@H](C)C(CCCCCCCNC(=O)c2cccc(NC=O)c2O)C(=O)O[C@@H](C)[C@@H]1OC(=O)CC(C)C	IFO1061	-	-	0.39 µg/mL
COc1ccc(Cc2nccc3cc(OC)c(OC)cc23)cc1OC	IFO1061	-	-	>500 µg/mL
C[C@H]1[C@@H](Oc2ccc(O)cc2)O[C@@H]2O[C@]3(C)CC[C@H]4[C@H](C)CC[C@@H]1C24OO3	ATCC 90028	-	-	>50 µg/mL
CCCCCCCC(=O)O	-	-	-	>1000 µg/mL
O=C1CC23C=CCN4CC[C@H]5c6ccccc6N1C42[C@@H]5CC3	-	-	-	>500 µg/mL
COC1=C(C)C(=O)c2cc(=O)n(C)cc2C1=O	7N	-	-	50 µg/mL
CCCCCCCCCCCCOC(C)=O	-	-	-	>100 µg/mL
CCCOc1cc2cc[n+](C)c(CC)c2cc1OCCC	IFO1061	-	-	>500 µg/mL
O=C1CCC(c2ccccc2)C(=O)N1CCCCN1CCN(c2ccccc2)CC1	DSM 1386	-	-	>100 µM
CCCCCCCCCCCC=O	-	-	-	136 µg/mL
CCCCCCCCCCCCCCCC(=O)NC1CC(O)C(O)NC(=O)C2C(O)C(C)CN2C(=O)C(C(O)CC(N)=O)NC(=O)C(C(O)C(O)c2ccc(O)c(S(=O)(=O)O)c2)NC(=O)C2CC(O)CN2C(=O)C(C(C)O)NC1=O	FP633	-	-	0.2 µg/mL
Cc1c(-c2ccccc2)c(=O)oc2ccc(-c3cc(-c4ccc(Cl)cc4)c4c(n3)-c3ccccc3CC4)cc12	MTCC 227	broth dilution / turbidity	-	1000 µg/mL
CN(C/C=C/C#CC(C)(C)C)Cc1cccc2ccccc12	IEM 49/64	-	-	5 µg/mL
CO[C@@H]1O[C@@H]2O[C@]3(C)CC[C@H]4[C@H](C)CC[C@@H]([C@H]1C)C24OO3	ATCC 90028	-	-	>50 µg/mL
Cc1c(OCC(F)(F)F)ccnc1CS(=O)c1nc2ccccc2[nH]1	Clinical isolates	-	-	128 µg/mL
C[C@H]1[C@@H](O)O[C@@H]2OC3(C)CC[C@H]4[C@H](C)CC[C@@H]1[C@@]24OO3	ATCC 90028	-	-	>50 µg/mL
Cn1c(=O)cc(Oc2nc(Nc3ccc(C#N)cc3)nc(Sc3nc4ccccc4s3)n2)c2ccccc21	MTCC 183	agar	-	500 µg/mL

8 of the rows above, restated:

SMILES	strain or isolate	method	conditions	value
Cn1c(=O)cc(Oc2nc(Nc3ccc(C#N)cc3)nc(Nc3nc4ccc(Cl)cc4s3)n2)c2ccccc21	MTCC 183	agar	-	50 µg/mL
C[C@H]1[C@@H](O)O[C@@H]2OC3(C)CC[C@H]4[C@H](C)CC[C@@H]1[C@@]24OO3	ATCC 90028	-	-	>50 µg/mL
CCCCC/C=C\C/C=C\CCCCCCCC(=O)O	-	-	-	455 µg/mL
Cc1c(-c2ccccc2)c(=O)oc2ccc(-c3cc(-c4ccc(Cl)cc4)c4c(n3)-c3ccccc3CC4)cc12	MTCC 227	broth dilution / turbidity	-	1000 µg/mL
COc1ccc(-c2cc(-c3ccc4oc(=O)c(-c5ccccc5)c(C)c4c3)nc3c2CCc2ccccc2-3)cc1	MTCC 227	broth dilution / turbidity	-	250 µg/mL
Cn1c(=O)cc(Oc2nc(Nc3ccc(C#N)cc3)nc(Nc3nc4ccc(F)cc4s3)n2)c2ccccc21	MTCC 183	agar	-	25 µg/mL
C[C@H]1[C@@H](Oc2ccc(O)cc2)O[C@@H]2O[C@]3(C)CC[C@H]4[C@H](C)CC[C@@H]1C24OO3	ATCC 90028	-	-	>50 µg/mL
COc1ccc(Cc2cc3cc(OC)c(OC)cc3c[n+]2C)cc1OC	IFO1061	-	-	>500 µg/mL

An empty or dashed field is not shown.